“And” between values parts separate entries of the source, which are not always exact repeats. Identical values can stand only once.
Tested on: zebrafish (Danio rerio) embryos
Assay: Zebrafish embryo toxicity (lethal, developmental, cardiotoxicity)
Experimental: The toxicity evaluation of B12-JR1, B12-JR1-CBC and vitamin B12 in the zebrafish model was carried out according to general rules of the OECD Guidelines for the Testing of Chemicals. […] Embryos of wild type zebrafish (Danio rerio, AB strain) were raised in a temperature- and light-controlled zebrafish facility with 28 °C and standard 14:10-h light-dark photoperiod, and regularly fed with commercially dry flake food (TetraMin™ flakes; Tetra Melle, Germany) twice a day and Artemia nauplii once daily. Zebrafish embryos were produced by the pair-wise mating, collected and distributed into 24-well plates containing 10 embryos per well and 1 mL embryos water (0.2 g L^−1 of Instant Ocean® Salt in distilled water), and raised at 28 °C. […] Experiments were performed three times using 30 embryos per concentration. Apical endpoints for the toxicity evaluation (Table S1) were recorded at 24, 48, 72, 96 and 120 hpf using an inverted microscope (CKX41; Olympus, Tokyo, Japan). […] Experiments were performed three times using 5 embryos per concentration. The hepatotoxicity was determined according to the change of liver area index compared to the control group, calculated as the ration between liver area and embryonic lateral area x 100%, as reported by Zhang et al.. In addition, the liver colour and retention of yolk were followed as the phenotypic signs of hepatotoxicity.

“cobalamin-7-chloro-N-(2-(4-(4-ethynylphenyl)-1H-1,2,3-triazol-1-yl)ethyl)quinolin-4-amine [Compound B12-JR1]” was tested, and the “Ti (LC50/IC50) K1, therapeutic window” value was > 16 and >16.3.

Reference: publication PMC6630517 (Molecules, 2019)
